Test results published in PMC8664216 (PLoS Neglected Tropical Diseases, 2021).

Assays:
[1] = system: CHIKV-LR; test: Western blot of CHIKV nsP2, E1 and capsid proteins; assay type: cell-based, Chikungunya virus; conditions: 9 hpi
[2] = system: CHIKV-LR trans-replicase system; test: CHIKV trans-replicase system, tomato marker by flow cytometry; assay type: cell-based, Chikungunya virus; conditions: marker-positive Huh7 cells, 10 μM tomatidine, 24 h post-transfection
[3] = Huh7, MOI 10, 10 μM tomatidine added at 4 hpi
[4] = Huh7, MOI 10, 10 μM tomatidine added at 6 hpi
[5] = Huh7, MOI 10, 10 μM tomatidine added simultaneous to infection

C[C@H]1CC[C@]2(NC1)O[C@H]1C[C@H]3[C@@H]4CC[C@H]5C[C@@H](O)CC[C@]5(C)[C@H]4CC[C@]3(C)[C@H]1[C@@H]2C [tomatidine, Tomatidine]
C (capsid) expression, fold-change to EtOH control [1, 3]: 0.5±0.2 fold
E1 expression, fold-change to EtOH control [1, 3]: 0.3±0.1 fold
nsP2 expression, fold-change to EtOH control [1, 3]: 0.5±0.1 fold
C (capsid) expression, fold-change to EtOH control [1, 4]: 0.6±0.1 fold
E1 expression, fold-change to EtOH control [1, 4]: 0.4± 0.2 fold
nsP2 expression, fold-change to EtOH control [1, 4]: 0.6±0.2 fold
C (capsid) expression, fold-change to EtOH control [1, 5]: 0.46±0.1 fold
E1 expression, fold-change to EtOH control [1, 5]: 0.18±0.1 fold
nsP2 expression, fold-change to EtOH control [1, 5]: 0.5±0.1 fold
MFI of tomato marker relative to EtOH control [2]: 1.0±0.06
